Experimental data: PubChem BioAssay AID624099 (ICCB-Longwood, 2012)

Screen: 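Knock-downs relieving repression by E2 of an HPV18 LCR luciferase reporter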 (primary screen)
Cells: human C33A cervical carcinoma cells (HPV-negative) stably expressing BPV1 E2 and an HPV18 LCR luciferase reporter
Reagent: siRNA pool against human genes, 40 nM
Time to read-out: 72 h
Read-out: 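Per-well luciferase luminescence, z-scored on each plate against the plate mean and SD with control wells left out, then averaged across three replicate plates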
Direction: mean z-score and z-score: higher = stronger reporter signal, weaker E2 silencing
Active means: 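Hit if mean z-score reaches 2 and two or more of three replicate z-scores also reach 2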
In all, the deposit lists about 21,000 reagents; shown is a random part of them. 497 of all reagents (2.4%) count as active. 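Higher z means weaker E2 silencing; only reporter increases were scored, and knock-downs that hurt cell survival may mask genuine repressor factors.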

PYDC1 (GeneID 260434): mean z-score = -0.55; z-score, replicate A = -0.25; z-score, replicate B = -0.38; z-score, replicate C = -1.02; activity call = inactive
KHDC1 (GeneID 80759): mean z-score = -0.18; z-score, replicate A = 0; z-score, replicate B = -0.18; z-score, replicate C = -0.35; activity call = inactive
LHFPL3 (GeneID 375612): mean z-score = -0.71; z-score, replicate A = -0.36; z-score, replicate B = -0.83; z-score, replicate C = -0.93; activity call = inactive
MYCLP1 (GeneID 4611): mean z-score = -0.04; z-score, replicate A = -0.19; z-score, replicate B = -0.05; z-score, replicate C = 0.12; activity call = inactive
LOC389687 (retired record) (GeneID 389687): mean z-score = 0.19; z-score, replicate A = 0.47; z-score, replicate B = -0.09; z-score, replicate C = 0.19; activity call = inactive
C15orf61 (GeneID 145853): mean z-score = 0.51; z-score, replicate A = 0.47; z-score, replicate B = 0.73; z-score, replicate C = 0.33; activity call = inactive
CYP27B1 (GeneID 1594): mean z-score = -0.41; z-score, replicate A = -0.09; z-score, replicate B = -0.61; z-score, replicate C = -0.53; activity call = inactive
LOC388283 (retired record) (GeneID 388283): mean z-score = -0.34; z-score, replicate A = -0.42; z-score, replicate B = -0.52; z-score, replicate C = -0.06; activity call = inactive
MIR17HG (GeneID 407975): mean z-score = -1.69; z-score, replicate A = -1.07; z-score, replicate B = -1.84; z-score, replicate C = -2.17; activity call = inactive
KCNJ16 (GeneID 3773): mean z-score = -0.27; z-score, replicate A = -0.26; z-score, replicate B = -0.27; z-score, replicate C = -0.26; activity call = inactive
CLK1 (GeneID 1195): mean z-score = 0.26; z-score, replicate A = 0.54; z-score, replicate B = -0.28; z-score, replicate C = 0.53; activity call = inactive
IFIT1 (GeneID 3434): mean z-score = 1.23; z-score, replicate A = 1.22; z-score, replicate B = 1.37; z-score, replicate C = 1.11; activity call = inactive
FBXL12 (GeneID 54850): mean z-score = 0.32; z-score, replicate A = 0.35; z-score, replicate B = 0.33; z-score, replicate C = 0.28; activity call = inactive
LOC389224 (retired record) (GeneID 389224): mean z-score = 0.65; z-score, replicate A = 0.83; z-score, replicate B = 0.33; z-score, replicate C = 0.81; activity call = inactive

Continued (3 carried over from the part before).
IFIT1 (GeneID 3434): mean z-score = 1.23; z-score, replicate A = 1.22; z-score, replicate B = 1.37; z-score, replicate C = 1.11; activity call = inactive
FBXL12 (GeneID 54850): mean z-score = 0.32; z-score, replicate A = 0.35; z-score, replicate B = 0.33; z-score, replicate C = 0.28; activity call = inactive
LOC389224 (retired record) (GeneID 389224): mean z-score = 0.65; z-score, replicate A = 0.83; z-score, replicate B = 0.33; z-score, replicate C = 0.81; activity call = inactive
MT1L (GeneID 4500): mean z-score = -0.23; z-score, replicate A = -0.3; z-score, replicate B = -0.05; z-score, replicate C = -0.33; activity call = inactive
LOC387886 (retired record) (GeneID 387886): mean z-score = 0.13; z-score, replicate A = -0.23; z-score, replicate B = 0.52; z-score, replicate C = 0.09; activity call = inactive
NR2E1 (GeneID 7101): mean z-score = 0.57; z-score, replicate A = 0.87; z-score, replicate B = 0.51; z-score, replicate C = 0.33; activity call = inactive
BCL2L10 (GeneID 10017): mean z-score = 0.76; z-score, replicate A = 0.92; z-score, replicate B = 0.62; z-score, replicate C = 0.73; activity call = inactive
CFAP20DC (GeneID 200844): mean z-score = -0.42; z-score, replicate A = -0.44; z-score, replicate B = -0.45; z-score, replicate C = -0.37; activity call = inactive
SLC22A17 (GeneID 51310): mean z-score = -0.01; z-score, replicate A = 0.25; z-score, replicate B = -0.23; z-score, replicate C = -0.06; activity call = inactive
STX2 (GeneID 2054): mean z-score = -0.51; z-score, replicate A = -0.68; z-score, replicate B = -0.53; z-score, replicate C = -0.31; activity call = inactive
